Anti-infective test results gathered from many reports (values: NIAID ChemDB through PubChem).

Common to all: whole-cell or culture tests; organism: Mycobacterium avium

An empty or dashed field is not shown.

structure	read by	strain or isolate	setting	read-out	tested at	value
Cc1cn2c(C(=O)NCc3cc(F)c(N4CCC(c5ccc(OC(F)(F)F)cc5)CC4)c(F)c3)c(C)nc2s1.Cl	fluorescence	-	-	inhibition	0.11 µM	85%
O=c1[nH]c(=O)n([C@H]2C[C@H](O)[C@@H](CO)O2)cc1F	-	ATCC 25291	-	EC50	-	<50 µg/mL
CC(C)(C)c1ccc(NC(=O)NNC(=O)c2ccncc2)cc1	broth dilution	MY330/88	14 d	MIC100	-	62.5 µM
O=c1ccn([C@H]2CC[C@@H](CO)O2)c(=O)[nH]1	-	ATCC 25291	-	inhibition	50 µg/mL	0%
COc1ccc(NC(=O)NNC(=O)c2ccncc2)cc1	broth dilution	MY330/88	21 d	MIC100	-	62.5 µM
Cc1nc2cc(F)ccn2c1C(=O)NCc1ccc(N2CCN(c3ccc(OC(F)(F)F)cc3)[C@@H](C)C2)c(F)c1	fluorescence	-	-	inhibition	0.0026 µM	85%
CCc1cc(C(N)=S)ccn1	-	1854-4	-	MBC	-	>40 µg/mL
CCCCCCCNC(=O)NNC(=O)c1ccncc1	broth dilution	MY330/88	21 d	MIC100	-	62.5 µM
Cc1nc2ccc(Br)cn2c1C(=O)NCc1ccc(N2CCN(c3ccc(OC(F)(F)F)cc3)[C@@H](C)C2)c(F)c1	fluorescence	-	-	inhibition	0.0045 µM	85%
CCCCCCCCc1ccc(NC(=O)NNC(=O)c2ccncc2)cc1	broth dilution	MY330/88	14 d	MIC100	-	250 µM
Cc1ccn2c(C(=O)NCc3ccc(N4CCC(c5ccc(OC(F)(F)F)cc5)CC4)c(F)c3)c(C)nc2c1.Cl	fluorescence	-	-	inhibition	0.12 µM	85%
CCc1cn([C@H]2C[C@H](O)[C@@H](CO)O2)c(=O)[nH]c1=O	-	ATCC 25291	-	inhibition	50 µg/mL	0%
Cc1ccn2c(C(=O)NCc3ccc(-c4ccc(OC(C)C)cc4)c(F)c3)c(C)nc2c1	fluorescence	-	-	inhibition	0.13 µM	85%
O=c1[nH]c(=O)n([C@@H]2O[C@H](CO)[C@@H](O)[C@H]2O)cc1O	-	ATCC 25291	-	EC50	-	>50 µg/mL
O=C(NNC(=O)c1ccncc1)Nc1ccc(Br)cc1Br	broth dilution	MY330/88	14 d	MIC100	-	>125 µM

A second listing of 2 rows from above:

Cc1ccn2c(C(=O)NCc3ccc(N4CCC(c5ccc(OC(F)(F)F)cc5)CC4)c(F)c3)c(C)nc2c1.Cl ; read by: fluorescence ; read-out: inhibition ; tested at: 0.12 µM ; value: 85%
CCc1cc(C(N)=S)ccn1 ; strain or isolate: 1854-4 ; read-out: MBC ; value: >40 µg/mL

ECn is the concentration giving n% inhibition of infection, replication or growth. A number after MIC or MFC names an inhibition level or a share of isolates. Inhibition is in % at the dose shown (toxicity tests: loss of growth or viability). Lines come from different laboratories, so protocols vary.